# This is a selection; strong and weak results do not stand in their true shares. The source made the active and inactive calls. No stated cut-off is given here; in the data, active means activity change below about -65%; inconclusive means mostly about -30% to -63%; inactive means weaker than that.
# Tested on: CtBP / adenovirus E1A interaction (AlphaScreen)
# Assay: qHTS Assay for Inhibitors of the CtBP/E1A Interaction
# Settings: AlphaScreen GST-E1A/His-CtBP binding, 1536-well; hits give low values
# Excerpt: Carboxyl-terminal binding protein (CtBP) is a co-repressor for many transcription factors. […] Our studies have shown that CtBP is overexpressed in multiple human cancers, including lung, breast, and head and neck cancers. In particular, it is over-expressed in 50% of primary lung cancer and 90% of metastatic lesions. CtBP suppresses epithelial-specific genes as well as genes critical for apoptosis, providing the underlying molecular mechanism for its role in tumorigenesis. […] Based on the above data, we hypothesize that 1) CtBP suppresses the pro-apoptotic and epithelial genes, therefore overexpressed CtBP in human cancer cells increases EMT and cancer survival; 2) decreasing CtBP's function represents a targeted therapy for lung cancer and potentially multiple cancer types. As a co-repressor, CtBP binds to E1A and other transcription factors through a conserved peptide motif to carry out its action. Inhibiting this interaction using small molecules can potentially serve as effective cancer therapeutics.
# To this end, we have developed a homogenous AlphaScreen assay targeting the CtBP/E1A interaction. We performed a large scale HTS of the Molecular Libraries Small Molecule Repository (MLSMR) to identify inhibitors of the CtBP/E1A interaction as potential anti-cancer therapeutics. Compounds identified can also be used as chemical probes to better understand the biological functions of CtBP.
# NIH Chemical Genomics Center [NCGC]
# NIH Molecular Libraries Probe Centers Network [MLPCN]
# Assay Submitter (PI): Rui Zhao, University of Colorado Denver
# The first step of the 5uL AlphaScreen assay is to dispense assay buffer (50 mM Tris, pH 8.0, 300 mM NaCl, 0.05% BSA, 0.02% Tween 20, 1 mM TCEP) into a Greiner 1536 white solid bottom microtiter plate (789175-F). Five microliters is added to Column 1, 4 uL is added to Column 2 and 3 uL is added to Columns 3 through 48. A 5X protein solution (125 nM GST-E1A protein + 125 nM His-tagged CtBP protein) is mixed and 1 uL is dispensed to Columns 3-48. Using a 1536 pintool, 23 nL of compound is transferred to the assay plate and the plate is incubated with a lid at 37 deg C in the dark for two hours. A solution of 5X AlphaScreen beads is mixed (50 ug/mL Glutathione linked donor beads + Nickel chelated acceptor beads) and 1 uL is dispensed to Columns 2-48. The assay plate is incubated for one hour, with a lid, at 37 deg C in the dark. The plate is read using a Perkin Elmer Envision using an AlphaScreen protocol.
# On the % scale 0 is the no-effect control and ±100 the full control effect.
row,Structure (SMILES),activity change
1,CN1CCC(Nc2ccc(F)c(Cl)c2)CC1,inactive: 7.02%
2,CCOc1ncccc1C(=O)NCC1(N2CCOCC2)CCCCC1,inactive: -3.6%
3,NN(c1ccccc1)C1CCN(CCc2ccccc2)CC1,inactive: -10%
4,CC(C)(C)OC(=O)N1CCC(Nc2ccccc2)CC1,inactive: -10.9%
5,O=c1[nH]c2ccccc2n1C1CCN(C(c2cc3ccccc3o2)c2nnnn2C2CCCC2)CC1 (centres undefined),inactive: -9.09%
6,CCCOc1ccc(C(=O)NCC2(N(C)C)CCCCC2)cc1,inactive: 4.6%
7,COc1cccc(C(=O)N(c2cc(C)cc(C)c2)C2CCN(C(=O)OC(C)(C)C)CC2)c1,inactive: 5.09%
8,COc1cc(OC)cc(C(=O)NCC2(N3CCOCC3)CCCCC2)c1,inactive: 2.13%
9,COc1cccc(C(c2nnnn2C2CCCC2)N2CCC(n3c(=O)[nH]c4ccccc43)CC2)c1OC (centres undefined),inactive: -5.31%
10,CCC(CO)(C(=O)OC1CN2CCC1CC2)c1ccccc1 (centres undefined),inactive: -2.62%
11,CCC(c1nnnn1C1CCCCC1)N1CCC(n2c(=O)[nH]c3ccccc32)CC1 (centres undefined),inactive: -18.9%
12,COc1cccc(C(c2nnnn2C2CCCCC2)N2CCC(n3c(=O)[nH]c4ccccc43)CC2)c1OC (centres undefined),inactive: -15.7%
13,CC(=O)N(c1ccccc1)C1CCNCC1,inactive: -0.214%
14,COc1cc(OC)cc(C(=O)NCC2(N3CCCCC3)CCCCC2)c1,inactive: 0%
15,O=c1[nH]c2ccccc2n1C1CCN(C(c2ccnc3ccccc23)c2nnnn2C2CCCCC2)CC1 (centres undefined),inactive: -2.29%
16,Fc1ccccc1NC1CCN(Cc2ccccc2)CC1,inactive: 8.2%
17,Cc1ccc(Nc2c([N+](=O)[O-])cc([N+](=O)[O-])cc2[N+](=O)[O-])cc1,inactive: -4.85%
18,Cc1ccc(C(=O)NCC2(N3CCCCC3)CCCCC2)o1,inactive: 3.55%
19,Cc1ccc(NC2(C#N)CCN(Cc3ccccc3)CC2)cc1,inactive: 9.09%
20,COc1ccc(C(c2nnnn2C2CCCCC2)N2CCC(n3c(=O)[nH]c4ccccc43)CC2)cc1 (centres undefined),inactive: 1.84%
21,CCN1CCC(Nc2cccc(F)c2)CC1,inactive: -10.2%
22,CC(C)(C)n1nnnc1C(c1ccnc2ccccc12)N1CCC(n2c(=O)[nH]c3ccccc32)CC1 (centres undefined),inactive: -22.4%
23,Cc1ccccc1NC1(C#N)CCN(Cc2ccccc2)CC1,inactive: 7.65%
24,CN(C)c1ccc(C(=O)NCC2(N3CCCCC3)CCCCC2)cc1,inactive: 1.41%
25,Cn1c(=O)[nH]cc(N(CCCl)CCCl)c1=O,inactive: 14.3%
26,O=C(NCC1(N2CCCCC2)CCCCC1)c1ccco1,inactive: 1.14%
27,N#Cc1ccc(C(=O)NCC2(N3CCCCC3)CCCCC2)cc1,inactive: 0%

row,Structure (SMILES),activity change
1,CC(C)(C)OC(=O)N1CCC(N(C(=O)c2ccccc2)c2ccc(Cl)cc2)CC1,inactive: -4.24%
2,CCOC(=O)C(CC)C1=NC(C)(C)Cc2ccccc21.O=[N+]([O-])c1cc([N+](=O)[O-])c(O)c([N+](=O)[O-])c1 (centres undefined),inactive: 2.93%
3,CN(C)C1(CNC(=O)c2cccc(C#N)c2)CCCCC1,inactive: 9.52%
4,O=c1[nH]c2ccccc2n1C1CCN(C(c2ccccc2)c2nnnn2C2CCCC2)CC1 (centres undefined),inactive: -11.7%
5,CCCN1CCC(Nc2cc(OC)cc(OC)c2)CC1,inactive: 3%
6,Cc1cc(N(CCCl)CCCl)ccc1C=O,inactive: 12.3%
7,c1ccc(CN2CCC(Nc3ccccc3)CC2)cc1,inactive: -0.296%
8,CC(C)(C)n1nnnc1C(c1cccc2ccccc12)N1CCC(n2c(=O)[nH]c3ccccc32)CC1 (centres undefined),inactive: -12.3%
9,CCCCn1nnnc1C(c1ccccc1)N1CCC(n2c(=O)[nH]c3ccccc32)CC1 (centres undefined),inactive: -3.55%
10,O=C(NCC1(N2CCOCC2)CCCCC1)c1cc(Br)ccc1Cl,inactive: 0%
11,O=c1[nH]c2ccccc2n1C1CCN(C(c2cccs2)c2nnnn2C2CCCCC2)CC1 (centres undefined),inactive: -3.9%
12,O=c1[nH]c2ccccc2n1C1CCN(C(c2ccnc3ccccc23)c2nnnn2C2CCCC2)CC1 (centres undefined),inactive: -3.71%
13,CCOC(=O)N1CCC(Nc2ccc(C)cc2)CC1,inactive: -7.15%
14,COc1cccc(C(c2nnnn2C(C)(C)C)N2CCC(n3c(=O)[nH]c4ccccc43)CC2)c1OC (centres undefined),inactive: -25.2%
15,N/C(=N\O)c1c(N)no[n+]1[O-],inactive: -0.681%
16,O=c1[nH]c2ccccc2n1C1CCN(C(c2cccs2)c2nnnn2C2CCCC2)CC1 (centres undefined),inactive: -11.3%
17,CCc1cc(C(=O)NCC2(N3CCCCC3)CCCCC2)sc1C,inactive: -1.75%
18,O=C(OC1CN2CCC1CC2)C1c2ccccc2C=Cc2ccccc21 (centres undefined),inactive: -15.4%
19,CCCCn1nnnc1C(c1cccc(OC)c1OC)N1CCC(n2c(=O)[nH]c3ccccc32)CC1 (centres undefined),inactive: -3.87%
20,CCCCn1nnnc1C(c1ccccc1OC(F)(F)F)N1CCC(n2c(=O)[nH]c3ccccc32)CC1 (centres undefined),inactive: -13.7%
21,CC(C)c1ccc(NC2CCN(C(=O)OC(C)(C)C)CC2)cc1,inactive: 2.86%
22,CN(C)c1cccc(C(=O)NCC2(N3CCCCC3)CCCCC2)c1,inactive: 1.85%
23,O=[N+]([O-])c1cc([N+](=O)[O-])c(OC2CCCCC2O)c([N+](=O)[O-])c1 (centres undefined),inactive: 0%
24,COc1ccc(CN(CCCl)CCCl)cc1Cl,inactive: 7.86%
25,CCC(c1nnnn1C(C)(C)C)N1CCC(n2c(=O)[nH]c3ccccc32)CC1 (centres undefined),inactive: -4.19%
26,COc1cc(OC)c(C(=O)NCC2(N(C)C)CCCCC2)cc1OC,inactive: -7.95%
27,CCCCn1nnnc1C(c1ccnc2ccccc12)N1CCC(n2c(=O)[nH]c3ccccc32)CC1 (centres undefined),inactive: -13.9%

# Reference: PubChem BioAssay AID651724 (National Center for Advancing Translational Sciences (NCATS), 2012)
